Reference: PubChem BioAssay AID898 (University of Pittsburgh Molecular Library Screening Center, 2007)
This is a selection; strong and weak results do not stand in their true shares. The source made the active and inactive calls. Cut-off read from the data, not from the text of the source: active = inhibition above about 50%; inactive = the rest.

What follows are compounds tested on YopH tyrosine phosphatase [Yersinia enterocolitica] (assay: inhibition of Yersinia YopH phosphatase – biochemical, fluorescence Ex485/Em525, primary screen (AID 898)). Conditions: stronger effect = higher value, concentration not given here.

**Q.** For `COc1cc(C2NCCC3(OCCO3)C2(C)C)cc(OC)c1OC.O=[N+]([O-])c1cc([N+](=O)[O-])c(O)c([N+](=O)[O-])c1` (centres undefined), which inhibition is on record?
**A.** The inhibition was inactive: -5.17%.

**Q.** Which inhibition does the source give for `COc1ccccc1OP(C)(=O)Nc1c(C)cccc1C` (centres undefined) here?
**A.** Its inhibition is inactive: -0.13%.

**Q.** For `CN1CCCCC1COC(=O)C1(O)c2ccccc2CCc2ccccc21` (centres undefined), which inhibition is on record?
**A.** Its inhibition is inactive: -28.7%.

**Q.** With `O=P1(Nc2ncccn2)COc2ccccc2OC1` as the compound, how does the inhibition read?
**A.** The inhibition was inactive: -29.3%.

**Q.** For `CP(=O)(Nc1ccc(SC(F)(F)F)cc1)Oc1ccccc1` (centres undefined), which inhibition is on record?
**A.** The inhibition was inactive: -11.6%.

**Q.** For `Cc1ccc(OCC(=O)OC2CN3CCC2CC3)cc1` (centres undefined), which inhibition is on record?
**A.** Its inhibition is inactive: -82.1%.

**Q.** How did the inhibition turn out when `O=P1(Nc2ccc(Br)cn2)COc2ccccc2OC1` was run?
**A.** Its inhibition is inactive: -47.4%.

**Q.** Which inhibition does the source give for `O=P1(Nc2ccccn2)COc2ccccc2OC1` here?
**A.** The inhibition was inactive: -11.8%.

**Q.** How did the inhibition turn out when `Clc1n[nH]nc1-c1nn[nH][15n]1` was run?
**A.** Its inhibition is inactive: -23.4%.

**Q.** `CC1(CBr)Cn2c(nc3ccccc3c2=O)S1` (centres undefined) was tested. Which inhibition did it give?
**A.** The inhibition was inactive: -25.6%.

**Q.** How did the inhibition turn out when `Cc1nc2ccc3ccccc3c2s1.O=[N+]([O-])c1cc([N+](=O)[O-])c(O)c([N+](=O)[O-])c1` was run?
**A.** Its inhibition is inactive: -44.5%.

**Q.** With `COP1(=S)c2c(C)nn(CCC#N)c2N=C(c2ccc(F)cc2)N1C` (centres undefined) as the compound, how does the inhibition read?
**A.** The inhibition was inactive: -34.7%.

**Q.** Which inhibition does the source give for `Cc1cccc(C)c1OP(C)(=O)Nc1ccc(SC(F)(F)F)cc1` (centres undefined) here?
**A.** Its inhibition is inactive: -26.4%.

**Q.** For `Cc1cc(C)cc(OP(C)(=O)Nc2ccc(SC(F)(F)F)cc2)c1` (centres undefined), which inhibition is on record?
**A.** The inhibition was inactive: 24.1%.

**Q.** With `O=C(COc1ccccc1)OC1CN2CCC1CC2` (centres undefined) as the compound, how does the inhibition read?
**A.** Its inhibition is inactive: -43.5%.

**Q.** `CP(=O)(NC(=O)Nc1ccccc1)Oc1ccccc1` (centres undefined) was tested. Which inhibition did it give?
**A.** Its inhibition is inactive: -34.4%.

**Q.** How did the inhibition turn out when `CCOP(C)(=S)SCC(=O)NC(C)C(=O)O` (centres undefined) was run?
**A.** The inhibition was inactive: -6.92%.

**Q.** How did the inhibition turn out when `CCOC(=O)c1ccc(NP(C)(=O)Oc2ccc(OC)cc2)cc1` (centres undefined) was run?
**A.** The inhibition was inactive: -36.6%.

**Q.** How did the inhibition turn out when `CCC(C)N(CC(C)C)C(=S)SC(NC(C)=O)C(Cl)(Cl)Cl` (centres undefined) was run?
**A.** The inhibition was inactive: -6.91%.

**Q.** Which inhibition does the source give for `CP(=O)(Nc1ccccn1)Oc1ccc(Cl)cc1` (centres undefined) here?
**A.** The inhibition was inactive: -20.4%.

**Q.** Which inhibition does the source give for `Cc1cc(SC(NC(=O)c2ccccc2)C(Cl)(Cl)Cl)nc(C(C)C)n1` (centres undefined) here?
**A.** The inhibition was inactive: -21.5%.

**Q.** For `CP(=S)(Nn1cnnc1)Oc1ccccc1` (centres undefined), which inhibition is on record?
**A.** Its inhibition is inactive: -3.86%.

**Q.** For `CP(=O)(Nc1ccccc1Br)Oc1ccccc1` (centres undefined), which inhibition is on record?
**A.** Its inhibition is inactive: -8.66%.

**Q.** For `CC(C)(C)c1ccc(OP(C)(=O)Nc2ccc(SC(F)(F)F)cc2)cc1` (centres undefined), which inhibition is on record?
**A.** Its inhibition is inactive: -12.8%.

**Q.** How did the inhibition turn out when `Cc1ccc2nc3c(c(C)c2c1)CC(C(Cl)Cl)S3` (centres undefined) was run?
**A.** The inhibition was inactive: -31.7%.

**Q.** How did the inhibition turn out when `ClCCSc1nnc(-c2cccnc2)o1` was run?
**A.** The inhibition was inactive: -110%.

**Q.** `CCOC(=O)c1ccc(NP(C)(=O)Oc2ccccc2)cc1` (centres undefined) was tested. Which inhibition did it give?
**A.** The inhibition was inactive: -20.2%.

**Q.** With `Cc1ccc(NP(C)(=O)Oc2ccccc2)c(C)c1` (centres undefined) as the compound, how does the inhibition read?
**A.** Its inhibition is inactive: -46.3%.

**Q.** For `COc1ccccc1OP(C)(=O)Nc1ccc(C)cc1` (centres undefined), which inhibition is on record?
**A.** Its inhibition is inactive: -17.6%.

**Q.** `COc1ccc(OP(C)(=O)Nc2cccc(F)c2)cc1` (centres undefined) was tested. Which inhibition did it give?
**A.** The inhibition was inactive: -7.76%.

**Q.** For `O=[N+]([O-])c1cc([N+](=O)[O-])c(-c2ccn[nH]2)s1`, which inhibition is on record?
**A.** Its inhibition is inactive: 0.15%.

**Q.** With `CCN(CC)C(=S)SC(NC=O)C(Cl)(Cl)Cl` (centres undefined) as the compound, how does the inhibition read?
**A.** The inhibition was inactive: -24.5%.

**Q.** For `Cc1c2c(nc3ccccc13)SC(C(Cl)Cl)C2` (centres undefined), which inhibition is on record?
**A.** The inhibition was inactive: -33.1%.

**Q.** Which inhibition does the source give for `O=C(OC1CN2CCC1CC2)C12CC3CC(CC(C3)C1)C2` (centres undefined) here?
**A.** The inhibition was inactive: 9.26%.
